Experimental data as given in ChEMBL document CHEMBL1128289, “Reductive chemistry of the novel hypoxia-selective cytotoxin 5-[N,N-bis(2-chloroethyl)amino]-2,4-dinitrobenzamide” (J Med Chem, 1995).

System: UV4
Assay: Cytotoxicity in a growth inhibition assay against aerobic cultures of UV4 cells was determined

SMILES: NC(=O)c1cc(N(CCCl)CCCl)c([N+](=O)[O-])cc1N
- IC50: 220 nM

SMILES: NC(=O)c1cc(N(CCCl)CCCl)c(N)cc1[N+](=O)[O-]
- IC50: 12000 nM

SMILES: NC(=O)c1cc(N(CCCl)CCCl)c(N)cc1N
- IC50: 29 nM
